Measurements: US11285125B2, “Oxidative retinal diseases” (priority 2011, dated 2022)

Test system: WT (W303) yeast
Settings: 200 μM, 4 h incubation

| SMILES | incorporation of fatty acid by yeast |
| --- | --- |
| CC/C=C\C/C=C\C/C=C\CCCCCCCC(=O)O [linolenic acid, cis,cis,cis-9,12,15-Octadecatrienoic acid, reference compound] | avidly incorporate |
| [2H]C([2H])(/C=C\CC)/C=C\C([2H])([2H])/C=C\CCCCCCCC(=O)O [D4-ALA, 11,11,14,14-Tetradeutero-cis,cis,cis-9,12,15-Octadecatrienoic acid] | avidly incorporate |
